# ChEMBL document CHEMBL3259574, “Environmentally benign synthesis and antimicrobial study of novel chalcogenophosphates” (Bioorg Med Chem Lett, 2014)
# Tested on: Candida albicans
# Test: Antimicrobial activity against Candida albicans MTCC227 assessed as zone diameter at 100 ug/ml after 24 hrs incubation by agar diffusion as say cup method
# Type: functional
# Summary of the method: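 Agar cup diffusion on nutrient agar plates. Solidified plates were spread with 0.1% cell suspension (10^6 CFU/mL) of the test organism and held 15 min, then 6 mm wells were cut. Samples at 100 µg/mL in DMSO went into the wells, and plates were incubated 24 h at 30–35 °C. Inhibition zone diameter was measured in mm by digital vernier caliper. Triplicate parallel sets gave mean ± standard deviation, compared by ANOVA with Tukey test (P < 0.01).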
row,SMILES,inhibition zone (IZ) [mm]
1,COP(=O)(OC)[Se]Cc1ccccc1,30.5
2,CC(C)OP(=O)(OC(C)C)[Se]Cc1ccccc1,27.4
3,CCOP(=O)(OCC)[Se]Cc1ccccc1,30.2
